Pooled drug test results. Numbers come from NIAID ChemDB, via PubChem.

All rows: tests in culture; species: HIV-1; read-out: fold resistance

An empty or dashed field is not shown. Conditions beyond the fields shown may differ between rows. Fold resistance: result on the changed form divided by that on wild type.

compound,changes,read by,strain,cells,value
COC(=O)c1cc(NC(=O)C2=C(C)OCCS2)ccc1Cl,RT-E138K,syncytia,TSAO-resistant (RT E138K),CEM,>2.5
C=C(Cl)COc1cc(NC(=S)c2ccoc2C)ccc1C,RT-V106A,syncytia,Nevirapine-resistant isolate (RT V106A),CEM,7.44
CC1=C(C(=O)Nc2cc(Cl)cc(C(=O)OC(C)C)c2)SCCO1,RT-V106A,syncytia,Nevirapine-resistant (RT V106A),CEM,1
C=C(C)COc1cc(NC(=S)OC(C)C)ccc1Cl,RT-V106A,syncytia,,CEM,44.5
COc1ccc(NC(=O)c2ccoc2C)cc1OCC=C(Cl)Cl,RT-E138K,syncytia,TSAO-m3T-resistant (RT E138K),CEM,40
CCN1c2ncc(CCOc3ccc(-c4ccc(CC(=O)O)cc4)cc3C)cc2C(=O)Nc2c(C)ccnc21,RT-K103N Y181C,p24,,C8166,1
CCc1c(C)[nH]c(=O)c(SC)c1Oc1cc(C)cc(C)c1,RT-L100I,cytopathic effect / MTT,,MT-4,10
Cc1cc(OCCCS(N)(=O)=O)ccc1NC(=O)COc1ccc(Cl)cc1C(=O)c1cc(F)cc(C(F)(F)F)c1,RT-V108I Y181C,β-galactosidase,HXB2,HeLa + HELA CD4+,~1
CCN1c2ncc(CCOc3ccc(-c4cccc(C(=O)O)c4)cc3)cc2C(=O)N(C)c2cccnc21,RT-K103N Y181C,p24,,C8166,>1
C[C@@H]1CCO[C@H]2Cn3cc(C(=O)NCc4ccc(F)cc4F)c(=O)c(O)c3C(=O)N12,PI-resistant ARP-11803 (L33F/E34T/K43T/G48V/I54S/L63P/A71V/V82A),luminescence,NL4-3,MT-4,1
CCc1c(C)[nH]c(=O)c(I)c1Oc1cc(C)cc(C)c1,RT-Y181C,cytopathic effect / MTT,,MT-4,16
C=C(Cl)COc1cc(NC(=S)c2ccsc2C)ccc1C#N,RT-L100I,syncytia,TIBO R82150-resistant (RT L100I),CEM,6.67
Cc1cc2[nH]cnc2cc1NC(=O)COc1ccc(Cl)cc1C(=O)c1cc(F)cc(C(F)(F)F)c1,RT-G190A,β-galactosidase,HXB2,HeLa + HELA CD4+,~1
COC(=S)Nc1ccc(Cl)c(C(=O)OC(C)C)c1,RT-E138K,syncytia,,CEM,>5.27
N#Cc1cc(Cl)cc(Oc2c(Br)ccc(CC(=O)Nc3ccc(S(N)(=O)=O)cc3Cl)c2F)c1,L100I,,,MT-4,<1
Cc1sccc1C(=O)Nc1ccc(Cl)c(OCC=C(Cl)Cl)c1,RT-Y181C,syncytia,Pyridone-resistant (RT Y181C),CEM,27.8
CC(C)COC(=O)c1cc(NC(=S)OC(C)C)ccc1Cl,RT-L100I,syncytia,,CEM,91
C=Cc1c(Oc2cc(C)cc(C)c2)c(CC)c(C)[nH]c1=O,RT-L100I,cytopathic effect / MTT,,MT-4,2
C/C=C\COc1cc(NC(=S)OC(C)C)ccc1Cl,RT-E138K,syncytia,,CEM,22.6
C=C(Cl)COc1cc(NC(=S)c2ccoc2C)ccc1Cl,RT-L100I,syncytia,TIBO R82150-resistant (RT L100I),CEM,14.9
Cc1cc(C#N)cc(C(=O)c2cc(Cl)ccc2OCC(=O)Nc2ccc(OCCCN3CC=CC3)cc2C)c1,RT-K103N V108I,β-galactosidase,HXB2,HeLa + HELA CD4+,~1
CC(C)OC(=S)Nc1ccc(Cl)c(COC(C)(C)C)c1,RT-V106A,syncytia,,CEM,≥2.22
CC1=C(C(=O)Nc2ccc(Cl)c(C(=O)OC3CCCCC3C)c2)SCCO1,RT-L100I,syncytia,TIBO-resistant (RT L100I),CEM,35
CCc1c(C)[nH]c(=O)c(C(F)(F)F)c1Oc1cc(C)cc(C)c1,RT-Y181C,cytopathic effect / MTT,,MT-4,16
CCCSC(=Nc1ccc(Cl)c(C(=O)OC(C)C)c1)OC(C)C,RT-E138K,syncytia,,CEM,13
CC1=C(C(=O)Nc2ccc(Cl)c(C(=O)OC3CCCC3)c2)SCCO1,RT-Y181C,syncytia,PYR-resistant (RT Y181C),CEM,13
CCC(CC)COC(=O)c1cc(NC(=S)OC(C)C)ccc1Cl,RT-E138K,syncytia,,CEM,16.6
CCCCCOC(=O)c1cc(NC(=O)C2=C(C)OCCS2)ccc1Cl,RT-L100I,syncytia,TIBO-resistant (RT L100I),CEM,5.83
CCN1c2ncc(CCOc3ccc(C(=O)NS(C)(=O)=O)cc3C)cc2C(=O)N(C)c2cccnc21,RT-K103N Y181C,p24,,C8166,>1
CCC(=O)c1ccc(F)c([C@@H]2C[C@@H]2NC(=O)Nc2ccc(C#N)cn2)c1O,NNRTI-resistant (RT E138A),β-galactosidase / luminescence,LAI,TZM-bl,2
C=CCOC(=O)c1cc(NC(=S)OC(C)C)ccc1Cl,RT-Y181C,syncytia,,CEM,21.3
CC1=C(C(=O)Nc2ccc(Cl)c(C(=O)OCC3CCC3)c2)SCCO1,RT-V106A,syncytia,Nevirapine-resistant (RT V106A),CEM,47.1
Cc1ccc(C2CC2)c(-c2ccc3c(c2)CCCO3)c1[C@H](OC(C)(C)C)C(=O)O,N222K,p24 / luminescence,NL4-3,MT-4,2
CCC1=C(C(=O)Nc2ccc(Cl)c(C(=O)OCC(C)C)c2)SCCO1,RT-Y181C,syncytia,PYR-resistant (RT Y181C),CEM,12
CCOC(=O)COc1cc(NC(=S)OC(C)C)ccc1Cl,RT-E138K,syncytia,,CEM,12.8
Nc1nc(=O)n([C@H]2C=C[C@@H](CO)O2)cc1F,RT-M184V,p24,RT-M184V XM-M184V,PBMC,0.7
Cc1cc(C#N)cc(C(=O)c2cc(Cl)ccc2OCC(=O)Nc2ccc(S(N)(=O)=O)cc2C)c1,RT-V108I Y181C,β-galactosidase,HXB2,HeLa + HELA CD4+,~1
C[C@H]1CO[C@@H]2Cn3cc(C(=O)NCc4ccc(F)cc4F)c(=O)c(O)c3C(=O)N12,H51Y/R263K,RT activity,NL4-3,CBMC,1.8
CCN1c2ncc(CCOc3ccc(-c4cccc(CC(=O)O)c4)cc3C)cc2C(=O)N(C)c2cccnc21,RT-K103N Y181C,p24,,C8166,1
C/C=C\COc1cc(NC(=S)OC(C)C)ccc1OC,RT-L100I,syncytia,,CEM,75
CCC(=O)Oc1ccc(NC(=O)C2=C(C)OCCS2)cc1C(=O)OC(C)C,RT-E138K,syncytia,TSAO-resistant (RT E138K),CEM,>2.22
CSc1ccc(NC(=S)OC(C)C)cc1C(=O)OC(C)C,RT-Y181C,syncytia,,CEM,42.5
CCc1c(C)[nH]c(=O)c(Sc2ccccc2)c1Oc1cc(C)cc(C)c1,RT-Y188L,cytopathic effect / MTT,,MT-4,79
CC(C)OC(=S)Nc1ccc(Cl)c(C(=O)OC2CCCC2)c1,RT-E138K,syncytia,,CEM,29.7
CCN1c2ncc(CCOc3ccc(-c4ccc(CC(=O)O)c(F)c4)cc3C)cc2C(=O)N(C)c2cccnc21,RT-K103N Y181C,p24,,C8166,1
CC(C)OC(=S)Nc1ccc(Cl)c(C(=O)OC(C)(C)C)c1,RT-Y181C,syncytia,,CEM,150
C/C(Cl)=C/COc1cc(NC(=S)c2ccoc2C)ccc1Cl,RT-Y181C,syncytia,Pyridone-resistant (RT Y181C),CEM,14.3
CO/N=C/c1cc(NC(=S)OC(C)C)ccc1Cl,RT-L100I,syncytia,,CEM,43.4
Cc1cc(-c2ccc[n+]([O-])c2)ccc1OCCc1cnc2c(c1)C(=O)N(C)c1cccnc1N2C1CC1,RT-K103N Y181C,p24,,C8166,>1
CCOC(=O)c1cc(NC(=S)OC(C)C)ccc1Cl,RT-E138K,syncytia,,CEM,25.1
Nc1nc(NC2CC2)c2ncn([C@H]3C=C[C@@H](CO)C3)c2n1,RT-T69SSS L210W T215Y,p24,XM-T69SSS,MT-4,17
CN1CCN(C(=O)c2ccc3c(=O)c4ccccc4[nH]c3c2)CC1,RT-E138K,syncytia,,CEM,70.9
CCCOC(=O)c1ccc(C)c(NC(=O)C2=C(C)OCCS2)c1,RT-L100I,syncytia,TIBO-resistant (RT L100I),CEM,>10
CCCCOC(=S)Nc1ccc(Cl)c(C(=O)OC(C)C)c1,RT-V106A,syncytia,,CEM,100
CCc1c(C)[nH]c(=O)c(Br)c1Oc1cc(C)cc(C)c1,RT-K103N,cytopathic effect / MTT,,MT-4,20

Repeating the first 5 entries:

compound | changes | read by | strain | cells | value
COC(=O)c1cc(NC(=O)C2=C(C)OCCS2)ccc1Cl | RT-E138K | syncytia | TSAO-resistant (RT E138K) | CEM | >2.5
C=C(Cl)COc1cc(NC(=S)c2ccoc2C)ccc1C | RT-V106A | syncytia | Nevirapine-resistant isolate (RT V106A) | CEM | 7.44
CC1=C(C(=O)Nc2cc(Cl)cc(C(=O)OC(C)C)c2)SCCO1 | RT-V106A | syncytia | Nevirapine-resistant (RT V106A) | CEM | 1
C=C(C)COc1cc(NC(=S)OC(C)C)ccc1Cl | RT-V106A | syncytia |  | CEM | 44.5
COc1ccc(NC(=O)c2ccoc2C)cc1OCC=C(Cl)Cl | RT-E138K | syncytia | TSAO-m3T-resistant (RT E138K) | CEM | 40